{"source": "PubChem BioAssay AID624099 (ICCB-Longwood, 2012)", "test": "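Knock-downs relieving repression by E2 of an HPV18 LCR luciferase reporter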 (primary screen)", "cell system": "human C33A cervical carcinoma cells (HPV-negative) stably expressing BPV1 E2 and an HPV18 LCR luciferase reporter", "knock-down reagent": "siRNA pool against human genes, 40 nM", "duration": "72 h", "measured": "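Per-well luciferase luminescence, z-scored on each plate against the plate mean and SD with control wells left out, then averaged across three replicate plates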", "reading the numbers": "mean z-score and z-score: higher = stronger reporter signal, weaker E2 silencing", "call rule": "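Hit if mean z-score reaches 2 and two or more of three replicate z-scores also reach 2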", "note": "The whole screen tested about 21,000 reagents; shown is an unselected part. In the full data, 497 (2.4%) were called active. 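Higher z means weaker E2 silencing; only reporter increases were scored, and knock-downs that hurt cell survival may mask genuine repressor factors.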 A number with no mark means an inactive call."}
{"Gene": "PNLIPRP2", "mean z-score": -0.21, "z-score, replicate A": 0.03, "z-score, replicate B": -0.42, "z-score, replicate C": -0.24}
{"Gene": "EXOC6", "mean z-score": -0.38, "z-score, replicate A": -0.44, "z-score, replicate B": -0.54, "z-score, replicate C": -0.15}
{"Gene": "TSPYL5", "mean z-score": -0.62, "z-score, replicate A": -0.3, "z-score, replicate B": -0.68, "z-score, replicate C": -0.88}
{"Gene": "CEP104", "mean z-score": -0.54, "z-score, replicate A": -0.52, "z-score, replicate B": -0.57, "z-score, replicate C": -0.52}
{"Gene": "RNF111", "mean z-score": -1.04, "z-score, replicate A": -1.25, "z-score, replicate B": -1.14, "z-score, replicate C": -0.72}
{"Gene": "APOBEC3B", "mean z-score": -0.31, "z-score, replicate A": 0.1, "z-score, replicate B": -0.38, "z-score, replicate C": -0.65}
{"Gene": "TRIM36", "mean z-score": -0.5, "z-score, replicate A": -0.64, "z-score, replicate B": -0.48, "z-score, replicate C": -0.39}
{"Gene": "NBPF22P", "mean z-score": 0.32, "z-score, replicate A": 0.58, "z-score, replicate B": 0.18, "z-score, replicate C": 0.2}
{"Gene": "UPP2", "mean z-score": 1.13, "z-score, replicate A": 1, "z-score, replicate B": 0.71, "z-score, replicate C": 1.67}
{"Gene": "GYPE", "mean z-score": 0.13, "z-score, replicate A": 0.07, "z-score, replicate B": 0, "z-score, replicate C": 0.31}
{"Gene": "GABRA3", "mean z-score": -0.17, "z-score, replicate A": -0.41, "z-score, replicate B": -0.13, "z-score, replicate C": 0.04}
{"Gene": "CERS6", "mean z-score": 0.28, "z-score, replicate A": 0.24, "z-score, replicate B": 0.37, "z-score, replicate C": 0.21}
{"Gene": "SERBP1P1", "mean z-score": -0.51, "z-score, replicate A": -0.6, "z-score, replicate B": -0.37, "z-score, replicate C": -0.57}
{"Gene": "ARMC6", "mean z-score": -0.13, "z-score, replicate A": 0.11, "z-score, replicate B": -0.19, "z-score, replicate C": -0.32}
{"Gene": "IL17RD", "mean z-score": -0.08, "z-score, replicate A": -0.26, "z-score, replicate B": -0.26, "z-score, replicate C": 0.28}
{"Gene": "SZRD1", "mean z-score": 0.84, "z-score, replicate A": 0.72, "z-score, replicate B": 0.53, "z-score, replicate C": 1.26}
{"Gene": "CCN3", "mean z-score": 1.82, "z-score, replicate A": 1.85, "z-score, replicate B": 1.8, "z-score, replicate C": 1.82}
{"Gene": "ANOS1", "mean z-score": "2.01 (active)", "z-score, replicate A": 1.77, "z-score, replicate B": 2.24, "z-score, replicate C": 2.03}
{"Gene": "AMOTL1", "mean z-score": -0.75, "z-score, replicate A": -1.15, "z-score, replicate B": -0.48, "z-score, replicate C": -0.62}
{"Gene": "ZNF879", "mean z-score": -0.59, "z-score, replicate A": -0.55, "z-score, replicate B": -0.46, "z-score, replicate C": -0.77}
{"Gene": "IL18R1", "mean z-score": -0.46, "z-score, replicate A": -0.26, "z-score, replicate B": -0.52, "z-score, replicate C": -0.6}

Not a retest: entries from further up.
{"Gene": "UPP2", "mean z-score": 1.13, "z-score, replicate A": 1, "z-score, replicate B": 0.71, "z-score, replicate C": 1.67}
{"Gene": "GYPE", "mean z-score": 0.13, "z-score, replicate A": 0.07, "z-score, replicate B": 0, "z-score, replicate C": 0.31}
